{"source": "patent EP4831293A1", "about": "“BIOSYNTHETIC GENE CLUSTER FOR POLYENE MACROLIDE NATURAL PRODUCT MANDIMYCIN, AND NATURAL PRODUCT AND USE THEREOF” (dated 2026)", "key": {"[1]": {"test_system": "Candida albicans BNCC 186382", "assay": "Mouse model of invasive candidiasis (survival)", "conditions": "10 mg/kg once daily for four days, monitored 20 days", "procedure": "Specific pathogen-free female ICR mice (Hangzhou Medical College, China), aged 6 weeks and weighing 23-27 g, were used. The mice were randomly housed, with six mice per cage, and were acclimated for three days prior to the experiment. To induce immunosuppression, the mice received intraperitoneal injections of cyclophosphamide (200 mg/kg) and subcutaneous injections of cortisone acetate (500 mg/kg) on Day -2 and Day +3, respectively. To prevent cross-infection, the mice received enrofloxacin in drinking water at a concentration of 50 µg/mL from Day 1 to Day 3, followed by subcutaneous injection of ceftazidime (200 µg/kg) from Day 0 to Day 9. Invasive candidiasis was induced by intravenous injection of 1 × 10^6 CFU of Candida albicans BNCC 186382. Treatment was initiated 16 h after infection, including subcutaneous injection of mandimycin (formulated in 10% DMSO and 10% Tween 80) at doses of 1 mg/kg, 5 mg/kg, 10 mg/kg, and 20 mg/kg once daily for four consecutive days, together with amphotericin B at a dose of 10 mg/kg. The mice were monitored for a total of 20 days. Survival curves were plotted using GraphPad Prism 9. When mandimycin was administered at a dose of 10 mg/kg, a survival rate of mice reached 100%."}, "[2]": {"test_system": "Candida albicans BNCC 186382", "assay": "Mouse model of vaginal infection", "conditions": "10 mg/kg, subcutaneous injection, once daily, 5 days", "procedure": "Female BALB/c mice, weighing 19-21 g, were acclimated for three days prior to the experiment. The mice were randomly housed, with four mice per cage, and were acclimated for three days prior to the experiment. On Day 1, the mice received subcutaneous injections of estradiol benzoate at a dose of 10 mg/kg once daily for five consecutive days to induce estrus. On Day 6, 50 µL of a suspension of Candida albicans BNCC 186382 (1 × 10^10 CFU/mL) was inoculated intravaginally into each mouse using a pipette. Following vaginal inoculation, the mice were maintained in an inverted position for 5 min. After three consecutive days of infection, the mice were maintained under normal feeding conditions for one day and subsequently received subcutaneous injections of mandimycin (10 mg/kg), amphotericin B (10 mg/kg), rezafungin (10 mg/kg), or isavuconazole (10 mg/kg) once daily for five consecutive days. The mice infected with Candida albicans but not treated with the compounds served as a control group and were injected with PBS containing 10% DMSO and 10% Tween 80. On the day following the final administration, the vaginae of the mice were repeatedly lavaged with sterile PBS (20 µL), and the vaginal lavage fluids were aspirated using pipettes. The samples were cultured on MRS agar plates for enumeration of Candida albicans colonies. Finally, all animals were anesthetized and euthanized using diethyl ether, and vaginal tissues were collected."}, "[3]": {"test_system": "Candida albicans BNCC 186382", "assay": "Effect of added fungal cell components on the MIC (broth dilution)", "procedure": "The effects of the addition of eukaryotic membrane phospholipid components (including phosphatidylinositol, phosphatidylserine, phosphatidylethanolamine, phosphatidylglycerol, lecithin, sphingomyelin, and cardiolipin), ergosterol and cell wall components β-1,3-glucan and mannan, on the antifungal activity of mandimycin were evaluated using Candida albicans BNCC 186382 and the broth dilution method. Various membrane components used in the experiments were dissolved in 10% DMSO to prepare the concentrations required for the experiment, followed by addition to the culture medium used for MIC determination of mandimycin. The effects of fungal cell membrane components on the MIC of mandimycin were then observed. […] Specifically, as the concentration of lecithin increased, the fold-change in the MIC of mandimycin against Candida albicans increased from 1-fold to 128-fold. As the concentrations of cardiolipin, phosphatidylinositol, phosphatidylserine, phosphatidylethanolamine, and sphingomyelin increased, the fold-change in the MIC of mandimycin increased from 1-fold to 64-fold. As the concentration of phosphatidylglycerol increased, the fold-change in the MIC of mandimycin increased from 1-fold to 32-fold."}}, "note": "The structures given here were assigned with low confidence; some may be wrong."}
{"compound": "COC1CC(OC2C(O)CC(OC3C(C)C=CCCC=CC=CC=CC=CC=CC(OC4OC(C)C(O)C(N)C4O)CC4OC(O)(CC(O)C(O)CCC(O)CC(=O)CC(O)CC(=O)OC(C)C3C)CC(O)C4C(=O)O)OC2C)OC(C)C1O", "note": "(stereo not drawn)", "values": [{"measurement": "survival rate of mice", "setting": "[1]", "result": 100, "unit": "%"}, {"measurement": "inflammation", "setting": "[2]", "result": "markedly alleviated"}, {"measurement": "vaginal fungal burden reduced by", "setting": "[2]", "result": 2.51, "unit": "log10 CFU"}, {"measurement": "vaginal mucosa", "setting": "[2]", "result": "almost completely restored"}, {"measurement": "inhibition of antifungal activity by added ergosterol", "setting": "[3]; ergosterol added to MIC medium", "result": "did not inhibit"}, {"measurement": "inhibition of antifungal activity by added β-1,3-glucan", "setting": "[3]; β-1,3-glucan added to MIC medium", "result": "did not inhibit"}]}
